A mixed list of measured activities; the numbers were collected in NIAID ChemDB.

Shared fields: tests in culture; organism: Plasmodium falciparum; method: SYBR Green; read-out: EC50

Blank or dashed fields: not listed here. ECn: concentration that inhibits the pathogen or its effect by n%. Rows are shuffled and stem from different studies.

Cc1c(-c2ccc(-c3ccc(OC(C)(C)C)cc3)nc2)[nH]c2cc(F)ccc2c1=O ; strain or isolate: 3D7 ; value: 0.075 µM
CC(C)Nc1nc2cc(-c3ccc(Cl)cc3)sc2c(=O)[nH]1.O=C(O)/C=C/C(=O)O ; strain or isolate: 3D7 ; value: 0.168 µM
CC1=C2Cc3cc(ccc3O)C(=O)O[C@H](C(C)(C)Br)CC[C@](C)(O)[C@H](Br)CC[C@]2(C)[C@@H](Br)CC1 ; strain or isolate: 3D7 MR4/ATCC ; cells: Human O+ erythrocytes ; value: 0.9 µM
Cc1cn([C@H]2C[C@H](O)[C@@H](CNS(=O)(=O)c3ccc([N+](=O)[O-])cc3)O2)c(=O)[nH]c1=O ; value: >100 µM
C[C@H]1[C@@H](OC(=O)CCC(=O)O)O[C@@H]2O[C@@]3(C)CC[C@H]4[C@H](C)CC[C@@H]1[C@@]24OO3 ; strain or isolate: K1 ; value: <0.1 µM
CN(C)c1cc[n+](-c2ccc(CCCCc3ccc(C[n+]4c[nH]c5c(SCc6ccccc6)ncnc54)cc3)cc2)cc1 ; strain or isolate: 3D7 ; value: 0.5 µM
CC1=C2Cc3cc(ccc3O)C(=O)O[C@H](C(C)(C)O)CC[C@]3(C)O[C@H]3C/C=C(\C)[C@@H]2CC1 ; strain or isolate: 3D7 MR4/ATCC ; cells: Human O+ erythrocytes ; value: >100 µM
CCN(CC)CCCC(C)Nc1ccnc2cc(Cl)ccc12 ; strain or isolate: Dd2 ; cells: Red blood cells ; value: 0.07 µg/mL
COCC1(C)C2CC2[C@@]2(C)CC[C@@H](Br)[C@@](C)(O)CC[C@@H](C(C)(C)Br)OC(=O)c3ccc(O)c(c3)CC12 ; strain or isolate: 3D7 MR4/ATCC ; cells: Human O+ erythrocytes ; value: 2.7 µM
C=CCOc1ccc(-c2cc(-c3ccc(Cl)cc3)nc(N)n2)cc1OC ; strain or isolate: 3D7 ; value: >50 µM
CC1=C2Cc3cc(ccc3O)C(=O)OC(C)(C)C(O)CC[C@](C)(O)C(Br)CC[C@]2(C)[C@@H](Br)CC1 ; strain or isolate: 3D7 MR4/ATCC ; cells: Human O+ erythrocytes ; value: 14 µM
CC(C)CC(=O)O[C@@H]1[C@@H](OC(=O)CC(C)C)[C@H](O[C@]2(CO)O[C@H](CO)[C@@H](OC(=O)CC(C)C)[C@@H]2OC(=O)CC(C)C)O[C@H](CO)[C@H]1OC(=O)CC(C)C ; strain or isolate: HB3 ; cells: Red blood cells ; value: 1.623 µg/mL
CCC[C@H]1O[C@@H]2CC(=O)O[C@@H]2C2=C1C(=O)c1c(O)cccc1C2=O ; strain or isolate: Dd2 ; value: 0.8 µM
CC(=O)O[C@H]1CC2C(C3CC[C@H](C(C)CCCN(CCCNc4ccnc5cc(Cl)ccc45)CCCC(C)[C@H]4CCC5C6C(C[C@H](OC(C)=O)[C@@]54C)[C@@]4(C)CC[C@@H](NC(=O)OC(C)(C)C)C[C@H]4C[C@H]6OC(C)=O)[C@]31C)[C@H](OC(C)=O)C[C@@H]1C[C@H](NC(=O)OC(C)(C)C)CC[C@]21C ; strain or isolate: TM91C235 ; value: 0.369 µM
Cc1ccc(N(C)C(=O)c2c[n+]3c(cn2)CN=C3c2ccc(C(F)(F)F)cc2)nn1 ; value: >10 µM
C=C1CC[C@H](Br)[C@@]2(C)CC[C@@H]3O[C@@]3(C)CC[C@@H](C(C)(C)O)OC(=O)c3ccc(O)c(c3)C[C@H]12 ; strain or isolate: 3D7 MR4/ATCC ; cells: Human O+ erythrocytes ; value: 18 µM
CN(C)c1cc[n+](Cc2ccc(CCc3ccc(-[n+]4ccc(N(C)c5ccc(Cl)cc5)cc4)cc3)cc2)cc1 ; strain or isolate: 3D7 ; value: 0.005 µM
C=CCOc1ccc(/C=C/C(=O)c2ccc(Nc3ccnc4cc(Cl)ccc34)cc2)cc1OC ; strain or isolate: 3D7 ; value: 75 µM
C[C@@]1(C(=O)O)CC[C@]2(C)CC[C@]3(C)C4=CC5C(=CN/C=C6\C(=O)CC[C@]7(C)CC8CC[C@@]9(C)C%10C[C@](C)(C(=O)O)CC[C@]%10(C)CC[C@]9(C)C8=CC67)C(=O)CC[C@]5(C)CC4CC[C@@]3(C)C2C1 ; mutations: CQ-resistant ; strain or isolate: FCM29 ; value: 16.6 µM
C#[N+][C@@H]1C2C([C@@]3(C)CCC(C(C)(C)Cl)O3)CC[C@](C)([N+]#C)C2CC[C@@]1(C)O ; strain or isolate: 3D7 ; value: 0.0084 µM

A second listing of 2 rows from above:

compound,mutations,strain or isolate,cells,value
Cc1cn([C@H]2C[C@H](O)[C@@H](CNS(=O)(=O)c3ccc([N+](=O)[O-])cc3)O2)c(=O)[nH]c1=O,-,-,-,>100 µM
C#[N+][C@@H]1C2C([C@@]3(C)CCC(C(C)(C)Cl)O3)CC[C@](C)([N+]#C)C2CC[C@@]1(C)O,-,3D7,-,0.0084 µM